The results in this text go back to patent publication US10781426B2 (priority 2012, dated 2020).

The assay addresses human dipeptidyl peptidase 4 (DPP4), full length, on cells, human, P27487 1-766.

In the case of “S1 Fc variant encompassing residues 1-357 of the MERS CoV spike protein”, the result is recorded as “no binding (tested: 15 µg/ml)”.
